PubChem BioAssay AID1259414 – Drosophila RNAi Screening Center – 2018
Assay: 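Host factors increasing or decreasing Wolbachia levels in cultured fly cells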 (primary screen). System: Drosophila JW18 cells infected with Wolbachia. Reagent: long dsRNA against Drosophila genes, 0.25 µg dsRNA per well of a 384-well plate. Duration: 5 days. Conditions: cells persistently infected with Wolbachia before knock-down; no added drug. Measured: 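Automated imaging of bacterial rRNA staining divided by host cell count, reported as plate-normalised robust z-score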. Reading the numbers: Wolbachia per cell robust z: higher = more Wolbachia per host cell than the plate typical. Call rule: 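Hit when robust z is 1.5 or more, or -1.5 or less, in at least two of three replicates; excludes dsRNAs with several or no targets, genes not expressed in JW18 and well A1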.
The screen tested about 24,000 reagents; this is a random part of those with a known target gene and a result. In the full data, about 1,210 (5%) got an active call. 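Inactive calls also include excluded dsRNAs with several or no targets, genes unexpressed in JW18, and well A1, regardless of score.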 A number with no mark means an inactive call. Names joined by + are all predicted targets of the reagent.

The first 6 entries, to show the layout:
target	PubChem SID	Wolbachia per cell robust z, rep 1	Wolbachia per cell robust z, rep 2	Wolbachia per cell robust z, rep 3
CG34299	SID104216383	-1.11	0.0169	0.0451
CG33453	SID104185574	-0.0408	0.697	0.625
CG33453	SID104219003	-1.14	0.519	0.956
sona (sol narae)	SID104183881	0.188	0.0974	0.539
sona (sol narae)	SID104184366	0.505	-1.69	0.777
sona (sol narae)	SID104184367	-0.867	-5.19	-1.45

The list itself, from the first entry:
target	PubChem SID	Wolbachia per cell robust z, rep 1	Wolbachia per cell robust z, rep 2	Wolbachia per cell robust z, rep 3
CG34299	SID104216383	-1.11	0.0169	0.0451
CG33453	SID104185574	-0.0408	0.697	0.625
CG33453	SID104219003	-1.14	0.519	0.956
sona (sol narae)	SID104183881	0.188	0.0974	0.539
sona (sol narae)	SID104184366	0.505	-1.69	0.777
sona (sol narae)	SID104184367	-0.867	-5.19	-1.45
CG42658	SID104218908	0.0517	-0.706	-1.83
CG31550	SID104191989	-2.85	0.632	0.362
CG31550	SID104191990	-0.122	0.157	-1.14
CG31550	SID104207991	0.124	-5.79	-0.165
Hen1 (Hen1 methyltransferase)	SID104185931	-1.06	0.623	-2.5
Hen1 (Hen1 methyltransferase)	SID104185932	-0.335	-3.18	0.507
Hen1 (Hen1 methyltransferase)	SID104205537	-7.86	0.671	0.157
CG42541	SID104197765	0.773	-1.42	-1.18
CG42541	SID104197912	0.523	1.31	0.581
CG42541	SID104203864	0.652	0.266	-0.33
CG42541	SID104203987	0.17	0.0835	0.847
CG4596	SID104195400	0.541	0.654	-3.91
CG4596	SID104204458	-0.904	0.247	1.8
BBS5 (Bardet-Biedl syndrome 5)	SID104191960	0.13	-2.06	0.51
BBS5 (Bardet-Biedl syndrome 5)	SID104206084	-1.03	0.00417	0.825
prc (pericardin)	SID104191177	0.561	0.115	0.373
CG2065	SID104186605	0.78	0.424	0.554
CG2065	SID104201110	-1.81	0.0387	-0.734
CG2065	SID104207708	-1.48	0.114	-0.398
CG2246	SID104195225	-1.6	-1.09	-0.77
CG6204	SID104195783	0.871	0.82	4.04
CG15269	SID104181734	0.538	0.692	1.56
CG15269	SID104203371	-0.158	0.13	-0.329
CG9426	SID104183011	-0.143	1.54	-10.8
CG31121	SID104195153	-2.99	-1.78	0.0257
CG31121	SID104195155	0.966	0.175	0.631
CG8562	SID104190787	-3.52	-0.28	-4.01
CG8562	SID104207322	0.11	-1.23	-1.93
Slip1 (SLo interacting protein 1)	SID104196938	-0.275	0.364	1.14
CG40498	SID104216143	-0.967	-0.804	-1.45
CG40498	SID104216435	-0.359	-5.26	0.836
a10 (antennal protein 10)	SID104191111	-1.37	0.227	0.993
rhi (rhino)	SID104185788	-0.0515	-0.0932	0.0468
rhi (rhino)	SID104218394	0.453	0.59	-0.0473
CG4404	SID104199689	0.765	0.704	0.65
CG4404	SID104202959	-0.782	0.567	-0.114
bnb (bangles and beads)	SID104200106	0.387	-6.64	0.167
bnb (bangles and beads)	SID104206167	-0.663	1.62	1.01
CG14418	SID104202408	-0.614	-0.928	-3.97
Gbeta5 (G protein beta subunit 5)	SID104197546	0.472	1.08	0.683
CAH4 (Carbonic anhydrase 4)	SID104201904	0.87	0.497	0.416
CG42558 + CG42557	SID104193755	-0.0239	0.214	0.408
CG42558 + CG42557	SID104196121	0.149	0.193	0.586
CG16711	SID104190012	-3.05	-0.0882	-0.408
CG16711	SID104202867	0.236	-0.694	-10.1
mkg-p (monkey king protein)	SID104190569	0.403	0.678	0.362
CG34452	SID104218158	-0.224	1.09	-0.164
MED18 (Mediator complex subunit 18)	SID104198341	-4.2	-0.102	-0.519
CG13066	SID104189741	-5.83	-3.47	-2.07
CG13066	SID104219020	-1.62	-2.2	0.719
CG13766	SID104182063	0.945 (active)	-3.79	-6.13
CG13766	SID104207593	-1.38	-0.853	-0.362
CG32547	SID104199055	-0.541	0.214	0.555
CG32547	SID104199266	1.26	-0.447	1.44
bin3 (bicoid-interacting protein 3)	SID104184711	0.352	-1.9	0.982
Cdk12 (Cyclin-dependent kinase 12)	SID104191628	0.305	0.294	-0.375
Cdk12 (Cyclin-dependent kinase 12)	SID104202680	0.758	0.728	-0.161
Cdk12 (Cyclin-dependent kinase 12)	SID104208167	0.929	0.34	0.14
Cht9 (Chitinase 9)	SID104183871	-1.67	1.34	0.0821
Cht9 (Chitinase 9)	SID104203393	-1.53	-0.505	0.485
Usp16-45 (Ubiquitin specific protease 16/45)	SID104198144	-0.00315	-1.8	0.0589
Usp16-45 (Ubiquitin specific protease 16/45)	SID104205063	0.301	-0.204	0.273
